Anti-infective test results gathered from many reports (values: NIAID ChemDB through PubChem).

Common to all: toxicity to cultured cells; endpoint: CC50

CCn: concentration that lowers growth or viability of the cells by n%. Blank or dashed fields: not listed here. Rows are shuffled and stem from different studies.

compound,method,cells,conditions,result
N#Cc1c(N2CCCC2)nsc1-c1ccccc1,-,L929,-,7 µg/mL
COc1cccc(N2CCN(C(=O)CCN3CCCc4cc(OC)ccc43)CC2)c1,MTT / absorbance,CD4+ T-cell,-,110 µg/mL
CC(=O)c1cc(O)c(O)c(=O)cc1C,MTS,HepDES19,3 d,25 µM
CN(C)C(=S)Oc1ccc(Cl)cc1C(=O)Nc1ccc(Br)cc1,MTT,HepG2 cell,-,85.64 µM
Nc1ncnc2c1ncn2CCCCP(=O)(O)O,-,HB611,-,>400 µM
COc1ccc2c(c1)CCCN2CCC(=O)N1CCN(c2ccccc2Cl)CC1,MTT / absorbance,CD4+ T-cell,-,112 µg/mL
CC(OCP(=O)(O)O)[C@@H](O)n1cnc(=N)c2[nH]cnc21,-,HB611,-,>100 µM
CSc1nc(N)cc(OCCOCP(=O)(O)O)n1,-,HeLa S3,-,<10 µM
NC(=S)N=Nc1c(O)n(CN2CCN(c3ccnc4cc(C(F)(F)F)ccc34)CC2)c2cc(Br)ccc12,MTT / absorbance,Human foreskin fibroblasts,-,3.15 µM
Nc1ccn(C[C@@H](CO)OCP(=O)(O)O)c(=O)n1,-,HB611,-,193 µM
CC(C)OC(=O)[C@H](C)N[P@](=O)(OC[C@H]1O[C@@H](n2ccc(=O)[nH]c2=O)[C@](C)(F)[C@@H]1O)Oc1ccccc1,-,RFP-NLS-IPS,-,>10 µM
O=C1C(=O)N(CN2CCN(c3ccnc4cc(Cl)ccc34)CC2)c2cccc(Br)c21,MTT / absorbance,Human foreskin fibroblasts,-,9.97 µM
Cc1cn([C@H]2C[C@H](N=[N+]=[N-])[C@@H](CO)O2)c(=O)[nH]c1=O,-,BFU-E,-,1.6 µM
CC(C)CC[C@@]1(C)C(=O)C(C2=NS(=O)(=O)c3cc(NS(C)(=O)=O)ccc3N2)=C(O)c2ccccc21,-,RFP-NLS-IPS,-,16.5 µM
CC1(C)[C@@H](O[C@H]2O[C@H](C(=O)O)[C@@H](O)[C@H](O)[C@H]2O[C@@H]2O[C@H](C(=O)O)[C@@H](O)[C@H](O)[C@H]2O)CC[C@]2(C)[C@H]3C(=O)C=C4[C@@H]5C[C@](C)(C(=O)O)CC[C@]5(C)CC[C@@]4(C)[C@]3(C)CC[C@@H]12,WST,Huh7.5,-,>30 µg/mL
C=C[C@]1(C)C=C2C(=O)c3c(NC=O)cccc3C(C)(C)[C@H]2C[C@H]1O,-,SF268,-,>100 µM
CN(C(=O)Oc1ccc(Cl)cc1C(=O)Nc1ccc(Cl)cc1)c1ccccc1,MTT,HepG2 cell,-,289 µM
CCOC(=O)CSc1nsc(-c2ccccc2)c1C#N,-,L929,-,200 µg/mL
Nc1ncnc2c1ncn2C[C@H](O)CO,-,P4,-,>191 µM
COc1ccc2c(c1)CCCN2CCC(=O)N1CCN(c2ccc([N+](=O)[O-])cc2)CC1,MTT / absorbance,CD4+ T-cell,-,>200 µg/mL
NCCNc1ccnc2cc(Cl)ccc12,MTT,HeLa cells,-,63.44 µM
N#Cc1c(N2CCCCC2)nsc1-c1ccccc1,-,L929,-,25 µg/mL
Nc1nc2c(ncn2[C@H]2CO[C@@H](CO)O2)c(=O)[nH]1,-,HT-1080,-,>500 µM
O=C(Nc1ccccc1)c1ccccc1OC(=O)N(c1ccccc1)c1ccccc1,MTT,HepG2 cell,-,211.1 µM
Nc1nccc2c1ncn2[C@@H]1C[C@H](CO)[C@@H](O)[C@H]1O,-,P4,-,>37 µM
CCSc1nsc(-c2ccccc2)c1C#N,-,L929,-,100 µg/mL
O=C1C(=O)N(CCCNc2ccnc3cc(C(F)(F)F)ccc23)c2cccc(Br)c21,MTT / absorbance,Human foreskin fibroblasts,-,11 µM
O=C1C[C@@H](c2ccc(OC3O[C@H](CO)[C@@H](O)[C@H](O)[C@H]3O)cc2)Oc2cc(O)ccc21,WST,Huh7.5,-,570 µg/mL
O=c1cc(-c2ccc(Oc3c(O)cc4oc(-c5ccc(O)cc5)cc(=O)c4c3O)cc2)oc2cc(O)cc(O)c12,neutral red,MA-104,-,6 µg/mL
Cc1cn([C@H]2C[C@H](N=[N+]=[N-])[C@@H](CO)O2)c(=O)[nH]c1=O,-,CBMC,-,74 µM
Cc1cn([C@H]2C[C@H](NC(=O)NCCCCCNc3ccnc4cc(Cl)ccc34)[C@H](CO)O2)c(=O)[nH]c1=O,MTT,HeLa cells,-,>100 µM
Nc1cc(OCCOCP(=O)(O)O)ncn1,-,L1210,-,<10 µM
O=c1cc(-c2ccc(O)c(-c3c(O)cc(O)c4c(=O)cc(-c5ccc(O)cc5)oc34)c2)oc2cc(O)cc(O)c12,neutral red,BSC-1,-,<60 µg/mL
Cc1cccc(OC2CCCN(C(=O)c3ccccc3Cl)C2)c1,-,HeLa,-,113.7 µM
COC(=O)N[C@H](C(=O)N1CCC[C@H]1c1ncc(-c2ccc(-c3ccc(-c4cnc([C@@H]5CCCN5C(=O)[C@@H](NC(=O)OC)C(C)C)[nH]4)cc3)cc2)[nH]1)C(C)C,ATP,SJCRH30,-,14.5 µM
FC(F)(F)c1ccc2c(NCCCN3CCCC3)ccnc2c1,MTT / absorbance,Human foreskin fibroblasts,-,10 µM
O=c1[nH]cnc2c1ncn2[C@H]1CC[C@@H](CO)O1,-,JM,-,1111 µM
Nc1nc(=O)n([C@H]2O[C@@H](CO)C[C@H]2F)cc1F,-,PBM,-,>100 µM
Nc1ccn([C@@H]2CS[C@H](CO)O2)c(=O)n1,-,DU145,-,>500 µM
Cc1cccc(OCCNC(=O)c2cccnc2Cl)c1,-,HeLa,-,>172 µM
C=C[C@H](O)C1=C[C@@H](n2cnc3c(N)ncnc32)[C@H](O)[C@@H]1O,-,P4,-,>138 µM
COc1ccc2c(c1)CCCN2CCC(=O)N1CCN(c2ccccn2)CC1,MTT / absorbance,CD4+ T-cell,-,98.84 µg/mL
Nc1ccn(CCOCP(=O)(O)O)c(=O)n1,-,HB611,-,>400 µM
O=c1[nH]c(=O)n([C@H]2O[C@@H](CO)C[C@H]2F)cc1Cl,-,PBM,-,>100 µM
Cc1cn([C@H]2C[C@H](NC(=O)NCCNc3ccnc4cc(Cl)ccc34)[C@H](CO[Si](c3ccccc3)(c3ccccc3)C(C)(C)C)O2)c(=O)[nH]c1=O,MTT,HeLa cells,-,23.78 µM
O=c1[nH]cnc2c1ncn2CCOCCP(=O)(O)O,-,HB611,-,>400 µM
CN(C(=O)Oc1ccc(Cl)cc1C(=O)Nc1ccc(Br)cc1)c1ccccc1,MTT,HepG2 cell,-,945.1 µM
Nc1nc(N)c2ncn([C@H]3CO[C@@H](CO)O3)c2n1,-,HSF,-,>500 µM
C[C@]1(C(=O)O)CC[C@]2(C)CC[C@]3(C)C(=CC(=O)[C@@H]4[C@@]5(C)CC[C@H](O[C@H]6O[C@H](C(=O)O)[C@@H](O)[C@H](O)[C@H]6O[C@@H]6O[C@H](C(=O)O)[C@@H](O)[C@H](O)[C@H]6O)[C@](C)(CO)[C@@H]5CC[C@]43C)[C@@H]2C1,WST,Huh7.5,-,>30 µg/mL
Cc1cccc(OCCNC(=O)c2ccc(N)cc2Cl)c1,-,HeLa,-,>164 µM
C[C@@H](COc1cc(N)nc(N)n1)OCP(=O)(O)O,-,CCRF-CEM,-,<10 µM
Nc1ccc(C(=O)O)c(O)c1,MTT,HepG2 cells,-,2240 µM
COc1ccc2c(c1)CCCN2CCC(=O)N1CCN(c2ccccc2OC)CC1,MTT / absorbance,CD4+ T-cell,-,80.8 µg/mL
CN(C)C(=S)Oc1ccc(Cl)cc1C(=O)Nc1ccc(C(F)(F)F)cc1,MTT,HepG2 cell,-,67.29 µM
COc1ccc2c(c1)CCCN2CCC(=O)N1CCN(c2ccccc2F)CC1,MTT / absorbance,CD4+ T-cell,-,82.89 µg/mL
OCc1cccc(Nc2ccnc3cc(Cl)ccc23)c1,MTT,HeLa cells,-,>100 µM
O=C(Nc1ccc(Cl)cc1)c1cc(Cl)ccc1OC(=O)N(c1ccccc1)c1ccccc1,MTT,HepG2 cell,-,>100 µM
CC[C@@]1(O)C(=O)OCc2c1cc1n(c2=O)Cc2cc3ccccc3nc2-1,-,IMR90,-,0.43 µM
C=C[C@@H](O)C1=C[C@@H](n2cnc3c(N)ncnc32)[C@H](O)[C@@H]1O,-,P4,-,>69 µM
COC(=O)N[C@H](C(=O)N1CCC[C@H]1c1nc2ccc(-c3csc4c(-c5ccc(-c6cnc([C@@H]7CCCN7C(=O)[C@H](NC(=O)OC)c7ccccc7)[nH]6)cc5)csc34)cc2[nH]1)C(C)C,ATP,CAKI-1,-,>50 µM
Cc1ccc(NCN2C(=O)c3ccccc3C2=O)cc1,-,HeLa,-,159.2 µM
O=c1[nH]c(=O)n([C@H]2C[C@H](O)[C@@H](CO)O2)cc1C12B3B4B5B6B(B3B1B42)B1B5C61,-,SK-MES-1,-,>100 µM
O=c1[nH]c(=O)n([C@H]2O[C@@H](CO)C[C@H]2F)cc1F,-,PBM,-,>100 µM
CN(C)c1cc(OCCOCP(=O)(O)O)nc(N)n1,-,L1210,-,<10 µM
O=c1[nH]c(=O)n([C@H]2O[C@@H](CO)C[C@H]2F)cc1Br,-,PBM,-,>100 µM
O=C1C[C@@H](c2ccc(O)cc2)Oc2cc(O)c(-c3c(O)cc4c(c3O)C(=O)C[C@@H](c3ccc(O)cc3)O4)c(O)c21,visual reading,MDCK,-,15 µg/mL
CC1(C)[C@@H](O[C@H]2O[C@H](C(=O)O)[C@@H](O)[C@H](O)[C@H]2O[C@@H]2O[C@H](C(=O)O)[C@@H](O)[C@H](O)[C@H]2O)CC[C@]2(C)[C@H]3C(=O)C=C4[C@@H]5C[C@@](C)(C(=O)O)CC[C@]5(C)CC[C@@]4(C)[C@]3(C)CC[C@@H]12,WST,Huh7.5,-,690 µg/mL
O=C1C(=O)N(CN2CCN(c3ccnc4cc(Cl)ccc34)CC2)c2cc(Br)ccc21,MTT / absorbance,Human foreskin fibroblasts,-,9.5 µM

Repeating the final 5 entries:

compound | method | cells | conditions | result
CN(C)c1cc(OCCOCP(=O)(O)O)nc(N)n1 | - | L1210 | - | <10 µM
O=c1[nH]c(=O)n([C@H]2O[C@@H](CO)C[C@H]2F)cc1Br | - | PBM | - | >100 µM
O=C1C[C@@H](c2ccc(O)cc2)Oc2cc(O)c(-c3c(O)cc4c(c3O)C(=O)C[C@@H](c3ccc(O)cc3)O4)c(O)c21 | visual reading | MDCK | - | 15 µg/mL
CC1(C)[C@@H](O[C@H]2O[C@H](C(=O)O)[C@@H](O)[C@H](O)[C@H]2O[C@@H]2O[C@H](C(=O)O)[C@@H](O)[C@H](O)[C@H]2O)CC[C@]2(C)[C@H]3C(=O)C=C4[C@@H]5C[C@@](C)(C(=O)O)CC[C@]5(C)CC[C@@]4(C)[C@]3(C)CC[C@@H]12 | WST | Huh7.5 | - | 690 µg/mL
O=C1C(=O)N(CN2CCN(c3ccnc4cc(Cl)ccc34)CC2)c2cc(Br)ccc21 | MTT / absorbance | Human foreskin fibroblasts | - | 9.5 µM